A mixed list of measured activities; the numbers were collected in NIAID ChemDB.

Shared fields: tests in culture; agent: Candida albicans; measure: MIC

Neighbouring rows are from separate reports.

structure,strain or isolate,read by,result
CCCCCCCCCCCC[N+](C)(C)[O-],S124,,200 µg/mL
Cc1cccnc1N1C(=O)CSC1c1c(C)cccc1C,NCIM 3102,agar,40 µg/mL
COC(=O)C1OC2(CCCC(OC(C)=O)C(C)C/C=C/c3ccccc3)OC(C(=O)O)(C(OC(=O)CCCCCC/C=C/c3ccccc3)C2O)C1(O)C(=O)O,427,,12.5 µg/mL
Cc1ccc(N=Nc2ccc(O)c(C[N+](C)(C)COCC3CCC(C)CC3)c2)cc1,,,143 µM
Cn1cc(NC(=O)c2cc(NC(=O)c3cc(NC(=O)c4nsc(Cl)c4Cl)cn3C)cn2C)cc1C(=O)NCCC(=N)N,38247,,0.5 µg/mL
C=C(CCCCCNC1NCCC2c3ccccc3CCN12)C(C)C,NFI0124,,32 µg/mL
C[N+](C)(COCCCC1CCCCC1)Cc1cc(N=Nc2ccc(Cl)cc2)ccc1O,,,129 µM
NS(=O)(=O)c1ccc(N2C(=O)CSC2c2ccccc2Cl)cc1,NCIM 3102,agar,19 µg/mL
Cn1cc(NC(=O)c2cc(NC(=O)c3cc(NC(=O)c4nsc(NCCCNc5ncccn5)c4Cl)cn3C)cn2C)cc1C(=O)NCCN1CCOCC1,38247,,>32 µg/mL
CCCCCOc1ccc(-c2ccc(-c3ccc(C(=O)N[C@H]4CCCNC(=O)C5C[C@H](NCC(=O)O)CN5C(=O)C(C(C)O)NC(=O)C(CCc5ccc(O)cc5)NC(=O)C5C[C@@H](O)CN5C(=O)C(C(C)O)NC4=O)cc3)cc2)cc1,ATCC 10231,,0.39 µg/mL
Cn1cc(NC(=O)c2cc(NC(=O)c3cc(NC(=O)c4nsc(N5CCCCC5)c4Cl)cn3C)cn2C)cc1C(=O)NCCCCN,38247,,4 µg/mL
Clc1ccc(/C(Cn2ccnc2)=N/OCc2ccccc2)cc1,CA6,,16 µg/mL
Cc1nn(CC(=O)NN)c(=O)n1NCc1ccccc1,,,250 µg/mL
CC1CCC(C(C)C)C(OC(=O)/C=C/c2cccc([N+](=O)[O-])c2)C1,,,4.68 µM
c1ccc(CCCN=c2ssc3ncccc23)cc1,,,30 µg/mL
O=C(/C(=C1/SCCN1c1ccccc1)n1ccnc1)c1ccc(Cl)cc1,,,>100 µg/mL
CN(Cc1ccc(S(=O)(=O)Nc2ccccc2)cc1)CC(O)(Cn1cncn1)c1ccc(F)cc1F,DSY735,resazurin,1.03 µg/mL
CCCCCCCCOc1ccc(N2CCN(c3ccc(C(=O)N[C@H]4CCCNC(=O)C5C[C@H](N)CN5C(=O)C(C(C)O)NC(=O)C(Cc5ccc(C=O)cc5)NC(=O)C5CCCN5C(=O)C(C(C)O)NC4=O)cc3)CC2)cc1,ATCC 62376,,25 µg/mL
CN(C)CCCCNC(=O)c1cc(NC(=O)c2cc(NC(=O)c3cc(NC(=O)c4nsc(NCCN5CCNCC5)c4Cl)cn3C)cn2C)cn1C,38247,,4 µg/mL
O[C@](Cn1cncn1)(Cn1cnc(/C=C/c2ccc(OCC(F)(F)C(F)F)cc2)n1)c1ccc(F)cc1F,Isolate I1-28,,2 µg/mL
CC(C)c1ccc(NS(=O)(=O)c2ccc(CN(C)CC(O)(Cn3cncn3)c3ccc(F)cc3F)cc2)cc1,DSY735,resazurin,1.05 µg/mL
CC1=CS/C(=C(/C#N)n2ccnc2)S1,,,>100 µg/mL
CC[N+]([O-])(CC)CCCC(C)=CCC/C(C)=C/CCC=C(C)CC/C=C(\C)CCC[N+]([O-])(CC)CC,S124,,200 µg/mL
Cc1cnc(N2C(=O)CSC2c2c(Cl)cccc2Cl)c(C)c1,NCIM 3102,agar,42 µg/mL
Clc1ccc(/C(Cn2ccnc2)=N\OCc2ccccc2)cc1,CA12,,128 µg/mL
CC1CCC(OC[N+](C)(C)Cc2cc(N=Nc3ccc(Cl)cc3)ccc2O)CC1,,,256 µM
CC1CCC(C(C)C)C(OC(=O)/C=C/c2ccccc2)C1,,,10.96 µM
CN(C)CCCNC(=O)c1cc(NC(=O)c2cc(NC(=O)c3cc(NC(=O)c4nsc(NCc5ccncc5)c4Cl)cn3C)cn2C)cn1C,38247,,64 µg/mL
CCOC(=O)/C(=C1/SCCC(C)S1)n1ccnc1,,,>100 µg/mL
S=C(NCc1ccccc1)c1ccc[nH]c1=S,,,20 µg/mL
CC1CCC(C(C)C)C(OC(=O)c2ccc(Br)cc2)C1,,,14.3 µM
CC(C)CCCC(C)CCCC(C)CCCCC(C)CCCC(C)CCCN(C)C,S9,,>200 µg/mL
Oc1ccc(Cl)c2ccc(Cl)nc12,ATCC 60193,,12 µg/mL
Clc1ccc(/C(Cn2ccnc2)=N/Nc2c(Cl)cccc2Cl)s1,A,,6.2 µg/mL
CCCCCOc1ccc(-c2ccc(-c3ccc(C(=O)N[C@H]4CCCNC(=O)C5C[C@H](NC(=O)OC)CN5C(=O)C(C(C)O)NC(=O)C(CCc5ccc(O)cc5)NC(=O)C5C[C@@H](O)CN5C(=O)C(C(C)O)NC4=O)cc3)cc2)cc1,ATCC CCH442,,0.2 µg/mL
Cc1c(O)cccc1C(=O)N[C@@H](CSc1ccccc1)[C@H](O)CN1C[C@H]2CCCC[C@H]2C[C@H]1C(=O)NC(C)(C)C,I41A,,64 µg/mL
CCN1CCS/C1=C(/C#N)n1ccnc1,,,>100 µg/mL
CCCCCCNC(=S)c1ccc[nH]c1=S,,,20 µg/mL
CCCCCOc1ccc(-c2ccc(-c3ccc(C(=O)N[C@H]4CCCNC(=O)C5C[C@@H](O)N5C(=O)C(C(C)O)NC(=O)C(CCc5ccc(O)cc5)NC(=O)C5C[C@@H](O)CN5C(=O)C(C(C)O)NC4=O)cc3)cc2)cc1,ATCC 62376,,1.56 µg/mL
CC(C)=CCCCCCNC1NCCC2c3ccccc3CCN12,NFI2103,,32 µg/mL
CCCCN=c1ssc2ncccc12,,,25 µg/mL
C[N+](C)(COC1CCCCC1)Cc1cc(N=Nc2ccc(Cl)cc2)ccc1O,,,71 µM
COc1cccc(OC)c1C1SCC(=O)N1c1ncccc1C,NCIM 3102,agar,17 µg/mL
Clc1ccc(/C(Cn2ccnc2)=N/OCc2ccccc2)c(Cl)c1,CA7,,16 µg/mL
C=C(CCCCCNC1NCCC2c3ccc(OC)cc3CCN12)C(C)C,NFI2103,,32 µg/mL
CCN(CC)CCCC(C)=CCC/C(C)=C/CCC=C(C)CC/C=C(\C)CCCN(CC)CC,S124,,25 µg/mL
Cc1ccc(C(=O)OC2CC(C)CCC2C(C)C)cc1,,,11.48 µM
CCCCCCCCNC1NCCC2c3ccc(OC)cc3CCN12,NFI0124,,32 µg/mL
CCCCCCCCOc1ccc(N2CCN(c3ccc(C(=O)N[C@H]4CCCNC(=O)C5C[C@H](N)CN5C(=O)C(C(C)O)NC(=O)C(Cc5ccc(CO)cc5)NC(=O)C5CCCN5C(=O)C(C(C)O)NC4=O)cc3)CC2)cc1,ATCC 62376,,1.56 µg/mL
CN(Cc1ccc(NS(=O)(=O)c2ccccc2)cc1)CC(O)(Cn1cncn1)c1ccc(F)cc1F,98 001,resazurin,0.015 µg/mL
c1ccc(CO/N=C(/Cn2ccnc2)c2ccccc2)cc1,CA6,,>128 µg/mL
CCCCCCCCCCCCCCCC(=O)NC(CCCCN)C(=O)NC(CCCCN)C(N)=O,4887,broth dilution,0.5 µg/mL
CCCn1sc2ncccc2c1=O,,,30 µg/mL
Cc1cccc(C(=O)OC2CC(C)CCC2C(C)C)c1,,,11.48 µM
CCCCCCCCCCCCOc1ccc(-c2ccc(C(=O)N[C@H]3CCCNC(=O)C4C[C@H](N)CN4C(=O)C(C(C)O)NC(=O)C(CCc4ccc(O)cc4)NC(=O)C4C[C@@H](O)CN4C(=O)C(C(C)O)NC3=O)cc2)cc1,ATCC 62376,,0.2 µg/mL
c1ccc(CCN=c2ssc3ncccc23)cc1,,,30 µg/mL
Cn1cc(NC(=O)c2cc(NC(=O)c3cc(NC(=O)c4nsc(N5CCCCC5)c4Cl)cn3C)cn2C)cc1C(=O)NCCCNC1CCCCC1,38247,,8 µg/mL
CC(C)c1ccc(S(=O)(=O)Nc2ccc(CN(C)CC(O)(Cn3cncn3)c3ccc(F)cc3F)cc2)cc1,CAAL-74,resazurin,0.12 µg/mL
Cc1ccc(N=Nc2ccc(O)c(C[N+](C)(C)COCCC3CCCCC3)c2)cc1,,,139 µM
CCCNS(=O)(=O)c1ccc(CN(C)CC(O)(Cn2cncn2)c2ccc(F)cc2F)cc1,98 001,resazurin,<0.001 µg/mL
CCN(CC)CCCC(C)CCCC(C)CCCCC(C)CCCC(C)CCCN(CC)CC,S9,,50 µg/mL

For reference, 6 entries again:

structure	strain or isolate	read by	result
Cn1cc(NC(=O)c2cc(NC(=O)c3cc(NC(=O)c4nsc(N5CCCCC5)c4Cl)cn3C)cn2C)cc1C(=O)NCCCCN	38247		4 µg/mL
Cc1ccc(N=Nc2ccc(O)c(C[N+](C)(C)COCCC3CCCCC3)c2)cc1			139 µM
CN(C)CCCNC(=O)c1cc(NC(=O)c2cc(NC(=O)c3cc(NC(=O)c4nsc(NCc5ccncc5)c4Cl)cn3C)cn2C)cn1C	38247		64 µg/mL
O=C(/C(=C1/SCCN1c1ccccc1)n1ccnc1)c1ccc(Cl)cc1			>100 µg/mL
CCCCN=c1ssc2ncccc12			25 µg/mL
NS(=O)(=O)c1ccc(N2C(=O)CSC2c2ccccc2Cl)cc1	NCIM 3102	agar	19 µg/mL

An empty or dashed field is not shown.